From patent US20250099474A1 (priority 2022, published 2025)

Experiments:
[1] = system: SARS-CoV-2; test: Phase 2/3 study, Phase 2a Part: SARS-CoV-2 virus titer; type: in vivo, human; conditions: for Time to the first negative SARS-CoV-2 virus titer: Difference of median value (vs placebo) / Time to the first negative SARS-CoV-2 virus titer: Median (time): mITT
[2] = system: SARS-CoV-2; conditions: Phase 3 Part; for Time to the first negative SARS-CoV-2 virus titer: 25% point / Time to the first negative SARS-CoV-2 virus titer: 75% point / Time to the first negative SARS-CoV-2 virus titer: Difference of RMST (vs placebo) / Time to the first negative SARS-CoV-2 virus titer: Difference of median value (vs placebo) / Time to the first negative SARS-CoV-2 virus titer: Kaplan-Meier median value / Time to the first negative SARS-CoV-2 virus titer: Maximum value / Time to the first negative SARS-CoV-2 virus titer: Minimum value / Time to the first negative SARS-CoV-2 virus titer: Number of events (value in parentheses) / Time to the first negative SARS-CoV-2 virus titer: Restricted mean survival time during 21 days (RMST) / Time to the first negative SARS-CoV-2 virus titer: Number of events: mild/moderate patients
[3] = mITT population, 375/125 mg group
[4] = mITT, onset to randomization less than 72 hours, 375/125 mg group
[5] = mITT population, 750/250 mg group
[6] = mITT, onset to randomization less than 72 hours, 750/250 mg group

Cn1cnc(Cn2c(=O)[nH]/c(=N\c3cc4cn(C)nc4cc3Cl)n(Cc3cc(F)c(F)cc3F)c2=O)n1 [(6E)-6-[(6-chloro-2-methyl-2H-indazol-5-yl)imino]-3-[(1-methyl-1H-1,2,4-triazol-3-yl)methyl]-1-[(2,4,5-trifluorophenyl)methyl]-1,3,5-triazinane-2,4-dione]
Time to the first negative SARS-CoV-2 virus titer: median shorter than in placebo group by ([1]; 375/125 mg group): 49.8 h
Time to the first negative SARS-CoV-2 virus titer: median shorter than in placebo group by ([1]; 750/250 mg group): 48.4 h
Reduction of time to the first negative SARS-CoV-2 virus titer of 50% of patients vs placebo ([1]; 750/250 mg group and 375/125 mg group): about 2 days
Time to the first negative SARS-CoV-2 virus titer of 50% of patients after the start of treatment ([1]; 750/250 mg group and 375/125 mg group, FIG. 5): about 2.6 days
Time to the first negative SARS-CoV-2 virus titer: Difference of median value (vs placebo) ([1]; 375/125 mg group): -49.8 h
Time to the first negative SARS-CoV-2 virus titer: Median (time) ([1]; 375/125 mg group): 61.3 h
Time to the first negative SARS-CoV-2 virus titer: Difference of median value (vs placebo) ([1]; 750/250 mg group): -48.4 h
Time to the first negative SARS-CoV-2 virus titer: Median (time) ([1]; 750/250 mg group): 62.7 h
Time to the first negative SARS-CoV-2 virus titer reduced compared to placebo group by a median of [2, 3]: 37.5 h
Time to the first negative SARS-CoV-2 virus titer reduced compared to placebo group by a median of [2, 4]: 29.1 h
Time to the first negative SARS-CoV-2 virus titer: 25% point [2, 3]: 18.8 h
Time to the first negative SARS-CoV-2 virus titer: 75% point [2, 3]: 62.8 h
Time to the first negative SARS-CoV-2 virus titer: Difference of RMST (vs placebo) [2, 3]: -23.0 h
Time to the first negative SARS-CoV-2 virus titer: Difference of median value (vs placebo) [2, 3]: -37.5 h
Time to the first negative SARS-CoV-2 virus titer: Kaplan-Meier median value [2, 3]: 24.5 h
Time to the first negative SARS-CoV-2 virus titer: Maximum value [2, 3]: 139.3 h
Time to the first negative SARS-CoV-2 virus titer: Minimum value [2, 3]: 8.8 h
Time to the first negative SARS-CoV-2 virus titer: Number of events (value in parentheses) [2, 3]: (100.0)
Time to the first negative SARS-CoV-2 virus titer: Restricted mean survival time during 21 days (RMST) [2, 3]: 39.0 h
Time to the first negative SARS-CoV-2 virus titer: Number of events ([2]; mITT population, 375/125 mg group, 313 cases analyzed): 313
Time to the first negative SARS-CoV-2 virus titer: 25% point [2, 5]: 19.0 h
Time to the first negative SARS-CoV-2 virus titer: 75% point [2, 5]: 48.0 h
Time to the first negative SARS-CoV-2 virus titer: Difference of RMST (vs placebo) [2, 5]: -24.7 h
Time to the first negative SARS-CoV-2 virus titer: Difference of median value (vs placebo) [2, 5]: -39.4 h
Time to the first negative SARS-CoV-2 virus titer: Kaplan-Meier median value [2, 5]: 22.6 h
Time to the first negative SARS-CoV-2 virus titer: Maximum value [2, 5]: 116.8 h
Time to the first negative SARS-CoV-2 virus titer: Minimum value [2, 5]: 11.9 h
Time to the first negative SARS-CoV-2 virus titer: Number of events (value in parentheses) [2, 5]: (99.7)
Time to the first negative SARS-CoV-2 virus titer: Restricted mean survival time during 21 days (RMST) [2, 5]: 37.3 h
Time to the first negative SARS-CoV-2 virus titer: Number of events ([2]; mITT population, 750/250 mg group, 301 cases analyzed): 300
Time to the first negative SARS-CoV-2 virus titer: 25% point [2, 4]: 19.5 h
Time to the first negative SARS-CoV-2 virus titer: 75% point [2, 4]: 64.0 h
Time to the first negative SARS-CoV-2 virus titer: Difference of RMST (vs placebo) [2, 4]: -27.5 h
Time to the first negative SARS-CoV-2 virus titer: Difference of median value (vs placebo) [2, 4]: -29.1 h
Time to the first negative SARS-CoV-2 virus titer: Kaplan-Meier median value [2, 4]: 36.2 h
Time to the first negative SARS-CoV-2 virus titer: Maximum value [2, 4]: 139.3 h
Time to the first negative SARS-CoV-2 virus titer: Minimum value [2, 4]: 8.8 h
Time to the first negative SARS-CoV-2 virus titer: Number of events (value in parentheses) [2, 4]: (100.0)
Time to the first negative SARS-CoV-2 virus titer: Restricted mean survival time during 21 days (RMST) [2, 4]: 41.4 h
Time to the first negative SARS-CoV-2 virus titer: Number of events ([2]; mITT, onset to randomization less than 72 hours, 375/125 mg group, 199 cases analyzed): 199
Time to the first negative SARS-CoV-2 virus titer: 25% point [2, 6]: 18.2 h
Time to the first negative SARS-CoV-2 virus titer: 75% point [2, 6]: 60.6 h
Time to the first negative SARS-CoV-2 virus titer: Difference of RMST (vs placebo) [2, 6]: -31.2 h
Time to the first negative SARS-CoV-2 virus titer: Difference of median value (vs placebo) [2, 6]: 42.6 h
Time to the first negative SARS-CoV-2 virus titer: Kaplan-Meier median value [2, 6]: 22.7 h
Time to the first negative SARS-CoV-2 virus titer: Maximum value [2, 6]: 116.8 h
Time to the first negative SARS-CoV-2 virus titer: Minimum value [2, 6]: 11.9 h
Time to the first negative SARS-CoV-2 virus titer: Number of events (value in parentheses) [2, 6]: (100.0)
Time to the first negative SARS-CoV-2 virus titer: Restricted mean survival time during 21 days (RMST) [2, 6]: 37.6 h
Time to the first negative SARS-CoV-2 virus titer: Number of events ([2]; mITT, onset to randomization less than 72 hours, 750/250 mg group, 183 cases analyzed): 183

Read-outs that look alike come from different tables or passages of the source.
